Target: Lassa virus L protein with internal StrepII-tag after residue 407 (Lassa virus strain Bantou 289)
Test: SEC

Question: How did the stoichiometry N turn out when “Lassa virus L protein with internal StrepII-tag after residue 407 (enzyme)” was run?
Answer: 2
